A mixed list of measured activities; the numbers were collected in NIAID ChemDB.

Shared fields: tests on isolated targets; agent: HIV-1; protein: Reverse transcriptase; read by: nucleotide incorporation / radiometric; measure: fold resistance

An empty or dashed field is not shown. Two numbers with a dash give a range or band. Fold resistance: result on the changed form divided by that on wild type. Neighbouring rows are from separate reports.

CCN1c2ncc(CCOc3ccc(/C=C(\C)C(=O)O)c4ccccc34)cc2C(=O)N(C)c2ccc(C)nc21 ; changes: RT-Y188L ; result: >10
CCN1c2ncc(CCOc3ccc(-c4cccc(C(=O)O)c4)cc3)cc2C(=O)N(C)c2cccnc21 ; strain: IIIB ; changes: RT-K103N Y181C ; result: >2
CCc1ccc(-n2c(Br)nnc2SCC(=O)Nc2ccc(C(=O)NCCC#N)cc2Cl)c2ccccc12 ; changes: RT-Y188L ; result: >1
Cc1cc(C)cc(S(=O)(=O)c2c(C(N)=O)[nH]c3ccc(Cl)cc23)c1 ; changes: RT-Y188L ; result: 66.6
Cc1cc(C2CC2)cc(C)c1-n1c(Br)nnc1SCC(=O)Nc1ccc(C(=O)O)cc1Cl ; changes: RT-Y188L ; result: >2
CCN1c2ncc(CCOc3cccc4c3ccc[n+]4[O-])cc2C(=O)N(C)c2ccc(Cl)nc21 ; changes: RT-K103N P225H ; result: 1.7
CCN1c2ncc(CCOc3ccc(CCC(=O)O)c4ccccc34)cc2C(=O)N(C)c2ccc(Cl)nc21 ; changes: RT-V106A ; result: 1–10
Cc1cc(C)cc(S(=O)(=O)c2c(C(=O)NCCO)[nH]c3ccc(Cl)cc23)c1 ; changes: RT-K103N ; result: 380
CCCc1ccc(-n2c(Br)nnc2SCC(=O)Nc2ccc(S(N)(=O)=O)cc2C)c2ccccc12 ; changes: RT-Y188L ; result: >2
CCN1c2ncc(CCOc3ccc(NS(C)(=O)=O)cc3C)cc2C(=O)N(C)c2cccnc21 ; strain: IIIB ; changes: RT-K103N Y181C ; result: 1
CCN1c2ncc(CCOc3ccc(C(=O)O)c4c3CCCC4)cc2-c2ncc(C)n2-c2cccnc21 ; changes: RT-K103N Y181C ; result: >2
CCc1ccc(-n2c(Br)nnc2SCC(=O)Nc2ccc(S(=O)(=O)O)cc2Br)c2ccccc12 ; changes: RT-Y188L ; result: >1
C=Cc1cc(N(CC)CC)nc(S(C)(=O)=O)n1 ; changes: RT-Y181I ; result: >114
Cc1ccc(-n2c(SCC(=O)Nc3ccc(S(=O)(=O)NC(C(=O)O)C(C)C)cc3Cl)nnc2C(F)F)c2c1CCCC2 ; changes: RT-Y188L ; result: >2
Cc1occc1C(=S)Nc1ccc(Cl)c(/C=N/OC(C)(C)C)c1 ; changes: RT-Y188H ; result: 1.31
CCN1c2ncc(CCOc3ccc(-c4cccc(CC(=O)O)c4)cc3)cc2C(=O)N(C)c2cccnc21 ; strain: IIIB ; changes: RT-K103N Y181C ; result: >2
CCN1c2ncc(CCOc3cccc4c3CS(=O)(=O)N4CC(=O)O)cc2-c2nccn2-c2c(C)ccnc21 ; changes: RT-K103N Y181C ; result: >1
CCN1c2ncc(CCOc3ccc(-c4ccc(N)nc4C)cc3C)cc2C(=O)N(C)c2cccnc21 ; strain: IIIB ; changes: RT-K103N Y181C ; result: 1
CCN1c2ncc(CCOc3ccc(C(=O)O)cc3C)cc2-c2nccn2-c2cccnc21 ; changes: RT-K103N Y181C ; result: >2
CCN1c2ncc(CCOc3ccc(-c4ccc(C(O)C(=O)O)cc4)cc3C)cc2C(=O)N(C)c2cccnc21 ; strain: IIIB ; changes: RT-K103N Y181C ; result: 1
NS(=O)(=O)c1ccc(NC(=O)CSc2nnc(C(F)F)n2-c2ccc(C3CC3)c3ccccc23)c(Cl)c1 ; changes: RT-Y188L ; result: >2
CCN1c2ncc(CCOc3ccc(C4CC4C(=O)O)c4ccccc34)cc2C(=O)N(C)c2ccc(F)nc21 ; changes: RT-Y188L ; result: 1–10
CCOC(=O)CN(C)C(=O)c1ccc(NC(=O)CSc2nnc(Br)n2-c2ccc(CC)c3ccccc23)c(Cl)c1 ; changes: RT-Y188L ; result: >2
C=Cc1cc(N(C)C)nc(SCc2ccc(OC)cc2)n1 ; changes: RT-Y181I ; result: >1.23
CCN1c2ncc(CCOc3ccc(CC(=O)O)c4ccccc34)cc2C(=O)Nc2c(C)cc(F)nc21 ; changes: RT-Y188L ; result: >10
CCc1ccc(-n2c(CF)nnc2SCC(=O)Nc2ccc(C(=O)O)cc2Cl)c2ccccc12 ; changes: RT-Y188L ; result: >2
Cc1occc1C(=S)Nc1ccc(Cl)c(C(=O)OCC2CC2)c1 ; changes: RT-Y181C ; result: >8.33
Cc1cc(C)cc(S(=O)(=O)c2c(C(=O)NC(C)C(N)=O)[nH]c3ccc(Cl)cc23)c1 ; changes: RT-K103N ; result: 166.6
CCN1c2ncc(CCOc3ccc(C(=O)N(C)Cc4ccc(C(=O)O)cc4)cc3C)cc2C(=O)N(C)c2cccnc21 ; strain: IIIB ; changes: RT-K103N Y181C ; result: >1
NS(=O)(=O)c1ccc(NC(=O)CSc2nnc(Br)n2-c2ccc(C3CC3)c3c2CCCC3)c(Cl)c1 ; changes: RT-Y188L ; result: >2
CCN1c2ncc(CCOc3ccc(-c4ccc(CC(=O)O)cc4)cc3C)cc2-c2ncc(C)n2-c2cccnc21 ; changes: RT-K103N Y181C ; result: >1
Cc1cc(S(N)(=O)=O)ccc1NC(=O)CSc1nnc(Br)n1-c1c(Cl)cc(C2CCC2)c2ccccc12 ; changes: RT-Y188L ; result: >1
CCN1c2ncc(CCOc3ccc4cc(CC(=O)O)ccc4c3C)cc2C(=O)N(C)c2cccnc21 ; changes: RT-Y188L ; result: 1–10
CCc1ccc(-n2c(Br)nnc2SCC(=O)Nc2ccc(C(=O)NCC(O)CO)cc2Cl)c2ccccc12 ; changes: RT-Y188L ; result: >2
C=CCO/N=C/c1cc(NC(=S)c2ccoc2C)ccc1Cl ; changes: RT-Y188H ; result: 1.17
Cc1ccc2ccccc2c1-n1c(Br)nnc1SC(C)C(=O)Nc1ccc(S(N)(=O)=O)cc1Cl ; changes: RT-Y188L ; result: >2
CCN1c2ncc(CCOc3ccc(-c4ccc(Cl)c(C(=O)O)c4)cc3C)cc2C(=O)N(C)c2cccnc21 ; strain: IIIB ; changes: RT-K103N Y181C ; result: >1
Cc1cc(S(N)(=O)=O)ccc1NC(=O)CSc1nnc(CF)n1-c1ccc(C)c2c1CCCC2 ; changes: RT-Y188L ; result: >2
CCN1c2ncc(CCOc3ccc(-c4ccc(C(=O)O)c(F)c4)cc3C)cc2C(=O)N(C)c2cccnc21 ; strain: IIIB ; changes: RT-K103N Y181C ; result: 1

4 of the rows above, restated:

structure,strain,changes,result
CCN1c2ncc(CCOc3ccc(-c4ccc(C(O)C(=O)O)cc4)cc3C)cc2C(=O)N(C)c2cccnc21,IIIB,RT-K103N Y181C,1
Cc1cc(C2CC2)cc(C)c1-n1c(Br)nnc1SCC(=O)Nc1ccc(C(=O)O)cc1Cl,-,RT-Y188L,>2
C=Cc1cc(N(C)C)nc(SCc2ccc(OC)cc2)n1,-,RT-Y181I,>1.23
Cc1cc(S(N)(=O)=O)ccc1NC(=O)CSc1nnc(CF)n1-c1ccc(C)c2c1CCCC2,-,RT-Y188L,>2